Taken from: PubChem BioAssay AID1259414 (Drosophila RNAi Screening Center, 2018)
Assay: 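Host factors increasing or decreasing Wolbachia levels in cultured fly cells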 (primary screen). System: Drosophila JW18 cells infected with Wolbachia. Reagent: long dsRNA against Drosophila genes, 0.25 µg dsRNA per well of a 384-well plate. Duration: 5 days. Treatment: cells persistently infected with Wolbachia before knock-down; no added drug. Measured: 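Automated imaging of bacterial rRNA staining divided by host cell count, reported as plate-normalised robust z-score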. Scale: Wolbachia per cell robust z: higher = more Wolbachia per host cell than the plate typical. Call rule: 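Active if absolute robust z reaches 1.5 in two or more of three replicates, leaving out multi- or no-target dsRNAs, genes unexpressed in JW18 and A1 wells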.
The screen tested about 24,000 reagents; this is a random part of those with a known target gene and a result. Of all reagents, about 1,210 (5%) are marked active. 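Inactive calls also include excluded dsRNAs with several or no targets, genes unexpressed in JW18, and well A1, regardless of score.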 No sequences are given here.

CG5280 [DRSC10498]: Wolbachia per cell robust z, rep 1 = -0.346; Wolbachia per cell robust z, rep 2 = 0.223; Wolbachia per cell robust z, rep 3 = 1.27; Outcome = inactive
CG5280 [DRSC22835]: Wolbachia per cell robust z, rep 1 = -1.54; Wolbachia per cell robust z, rep 2 = -0.267; Wolbachia per cell robust z, rep 3 = -2.47; Outcome = inactive
Las (Lipoic acid synthase) [DRSC11772]: Wolbachia per cell robust z, rep 1 = 0.185; Wolbachia per cell robust z, rep 2 = 0.346; Wolbachia per cell robust z, rep 3 = 0.363; Outcome = inactive
Las (Lipoic acid synthase) [DRSC26539]: Wolbachia per cell robust z, rep 1 = -0.345; Wolbachia per cell robust z, rep 2 = -0.369; Wolbachia per cell robust z, rep 3 = -0.644; Outcome = inactive
CG10508 [DRSC11612]: Wolbachia per cell robust z, rep 1 = 1.13; Wolbachia per cell robust z, rep 2 = 0.204; Wolbachia per cell robust z, rep 3 = 0.377; Outcome = inactive
CG10508 [DRSC11613]: Wolbachia per cell robust z, rep 1 = 0.0898; Wolbachia per cell robust z, rep 2 = -0.161; Wolbachia per cell robust z, rep 3 = 0.366; Outcome = inactive

2 successive reagents from above, for reference:
CG5280 [DRSC10498]: Wolbachia per cell robust z, rep 1 = -0.346; Wolbachia per cell robust z, rep 2 = 0.223; Wolbachia per cell robust z, rep 3 = 1.27; Outcome = inactive
CG5280 [DRSC22835]: Wolbachia per cell robust z, rep 1 = -1.54; Wolbachia per cell robust z, rep 2 = -0.267; Wolbachia per cell robust z, rep 3 = -2.47; Outcome = inactive

The listing continues:
CG34342 [DRSC09756]: Wolbachia per cell robust z, rep 1 = -0.801; Wolbachia per cell robust z, rep 2 = -1.89; Wolbachia per cell robust z, rep 3 = -0.799; Outcome = inactive
CG34342 [DRSC22515]: Wolbachia per cell robust z, rep 1 = 0.151; Wolbachia per cell robust z, rep 2 = -1.2; Wolbachia per cell robust z, rep 3 = -0.0529; Outcome = inactive
CG34342 [DRSC24023]: Wolbachia per cell robust z, rep 1 = 0.33; Wolbachia per cell robust z, rep 2 = -0.568; Wolbachia per cell robust z, rep 3 = -1.25; Outcome = inactive
Nagk (N-acetylglucosamine kinase) [DRSC15994]: Wolbachia per cell robust z, rep 1 = 0.103; Wolbachia per cell robust z, rep 2 = -0.986; Wolbachia per cell robust z, rep 3 = -1.32; Outcome = inactive
Nagk (N-acetylglucosamine kinase) [DRSC41270]: Wolbachia per cell robust z, rep 1 = 1.34; Wolbachia per cell robust z, rep 2 = 0.278; Wolbachia per cell robust z, rep 3 = 0.545; Outcome = inactive
CG3123 [DRSC38928]: Wolbachia per cell robust z, rep 1 = 0.657; Wolbachia per cell robust z, rep 2 = -5.68; Wolbachia per cell robust z, rep 3 = 0.548; Outcome = inactive
